Source: ChEMBL document CHEMBL1148371, “Sulfonyl-containing aldophosphamide analogues as novel anticancer prodrugs targeted against cyclophosphamide-resistant tumor cell lines” (J Med Chem, 2004)
pIC50: −log10 of the molar value.

Columns and labels:
V79 = test: In vitro cytotoxicity against V-79 chinese hamster lung fibroblasts (3 hr drug exposure time) by clonogenic assay
[1] = Half life period in phosphate buffer (0.1 M)

SMILES | pIC50 (V79) | T1/2 [1]
CS(=O)(=O)CCOP(N)(=O)N(CCCl)CCCl (stereo not drawn) | 4.25 | 
CSCCOP(N)(=O)N(CCCl)CCCl (stereo not drawn) | 4.16 | 
O=P(O)(N(CCCl)CCCl)N(CCCl)CCCl | 4.37 | 
CC(CS(C)(=O)=O)OP(N)(=O)N(CCCl)CCCl (stereo not drawn) | 4.16 | 
O=P1(N(CCCl)CCCl)NC(O)CCO1 (stereo not drawn) | 5.48 | 
NP(=O)(O)N(CCCl)CCCl | 4.11 | 18 min
CSCC(C)OP(N)(=O)N(CCCl)CCCl (stereo not drawn) | 4.16 | 
